According to article PMC10534891, “Evaluation of 4-Aminoquinoline Hydrazone Analogues as Potential Leads for Drug-Resistant Malaria” (Molecules, 2023):

Tested on: P. falciparum K1 strain
Experiment: CalcuSyn drug combination assay
Assay type: cell-based, Plasmodium falciparum
Conditions: CalcuSyn median effect, K1, 72 h

SMILES | m (kinetic order and shape of the curve)
[H]/N=C(\N/C(=N/[H])Nc1ccc(Cl)cc1)NC(C)C [Proguanil] | 0.565
O=C1C(O)=C([C@H]2CC[C@H](c3ccc(Cl)cc3)CC2)C(=O)c2ccccc21 [Atovaquone] | 0.652

No dose or concentration is given here for some results.
